According to US20020055094A1 (priority 1996, published 2002):

Legend:
[1] = target: whole virus influenza neuraminidase, influenza A strain NWS/G70C (Influenza A virus, UniProt P03472); settings: read-out: Binding Constants (M) / inhibition constants (IC50), NWS/G70C
[2] = test system: NWS/G70C Influenza A virus (H1N9 subtype); settings: for absorption signal after capture: 21 at 1 and 10 μM, control 8 at 10 μM, serial two-fold virus dilutions

SMILES	IC50 [1]	absorption signal after capture [2]	virus detection limit after capture ([2]; compound at 1 and 10 μM on avidin-coated wells, anti-hemagglutinin antibody / Ab-HRPO / ABTS readout)
CC(=O)N[C@H]1[C@H]([C@H](OC(=O)NCCCCCCN)[C@H](O)CO)OC(C(=O)O)=C[C@@H]1NC(=N)N [compound 11, 5-acetamido-7-(6′-aminohexyl)-carbamoyloxy-4-guanidino-2,3,4,5-tetradeoxy-D-glycero-D-galacto-non-2-enopyranosonic acid]	2e-08 M	–	–
CC(=O)N[C@H]1[C@H]([C@H](OC(=O)NCCCCCCNC(=O)CNC(=O)CNC(=O)CNC(=O)CCCC[C@@H]2SC[C@@H]3NC(=O)N[C@@H]32)[C@H](O)CO)OC(C(=O)O)=C[C@@H]1NC(=N)N [Compound No. 21, 5-acetamido-7-(6′-biotinylamino-tricrlycinamido-hexy) -carbamoyloxy-4-guanidino-2,3,4,5-tetradeoxy-D-glycerQ-D-galacto-non-2-enopyranosonic acid]	2e-08 M	a strong absorption signal at the highest virus concentration and then a decreasing signal with virus dilution	1.6×10^5 pfu per test
CC(=O)N[C@H]1[C@H]([C@H](OC(=O)NCCCCCCNC(=O)CCCCCCCCCCCNC(=O)CCCC[C@@H]2SC[C@@H]3NC(=O)N[C@@H]32)[C@H](O)CO)OC(C(=O)O)=C[C@@H]1NC(=N)N [compound 22, 5-Acetamido-7-(6′-biotinylamino-dodecanoyl-aminohexyl) -carbamoyl-4-guanidino-2,3,4,5-tetradeoxy-D-glycero-D-galacto-non-2-enopyranosonic acid]	5e-09 M	–	–
CC(=O)N[C@H]1[C@H]([C@H](OC(=O)NCCCCCCNC(=O)NCCCCCCN)[C@H](O)CO)OC(C(=O)O)=C[C@@H]1NC(=N)N [Compound No. 8, 5-acetamido-7-[6′-(6″-aminohexylureido)-hexyl]-carbamoyloxy-4-guanidino-2,3,4,5-tetradeoxy-D-glycero-D-galacto-non-2-enopyranosonic acid]	1e-08 M	only a weak, unchanging absorption at all virus concentrations	–
CC(=O)N[C@H]1[C@H]([C@H](OC(=O)NCCCCCCNC(=O)CCCCCNC(=O)CCCCCNC(=O)CCCCCNC(=O)CCCCCN)[C@H](O)CO)OC(C(=O)O)=C[C@@H]1NC(=N)N [compound 25, 5-acetamido-7-(6′-(6″-(6″′-aminocaproyl) -triaminocaproyl) -aminohexyl) -carbamoyloxy-4-guanidino-2,3,4,5-tetradeoxy-D-glycero-D-galacto-non-2-enopyranosonic acid]	4e-08 M	–	–
CC(=O)N[C@H]1[C@H]([C@H](OC(=O)NCCCCCCNC(=O)CCCCCNC(=O)CCCC[C@@H]2SC[C@@H]3NC(=O)N[C@@H]32)[C@H](O)CO)OC(C(=O)O)=C[C@@H]1NC(=N)N [compound 23, 5-Acetamido-7-(6′-biotinylamino-caproyl-aminohexyl) -carbamoyl-4-guanidino-2,3,4,5-tetradeoxy-D-glycero-D-galacto-non-enopyranosonic acid]	5e-09 M	–	–
CC(=O)N[C@H]1[C@H]([C@H](OC(=O)NCCOCCOCCN)[C@H](O)CO)OC(C(=O)O)=C[C@@H]1NC(=N)N [compound 17, 5-acetamido-7-{2-[2-(2-aminoethoxy)-ethoxy]-ethyl}-carbamoyloxy-4-guanidino-2,3,4,5-tetradeoxy-D-glycero-D-galacto-non-2-enopyranosonic acid]	2e-08 M	–	–
CC(=O)N[C@H]1[C@H]([C@H](OC(=O)NCCCCCCNC(=O)CCCC[C@@H]2SC[C@@H]3NC(=O)N[C@@H]32)[C@H](O)CO)OC(C(=O)O)=C[C@@H]1NC(=N)N [compound 19, 5-acetamindo-7-(6′-biotinylaminohexyl),carbamoyloxy-4-guanidino-2,3,4,5-tetradeoxy-D-crlvero-D-galacto-non-2-enopyranosonic acid]	5e-09 M	–	–
CC(=O)N[C@H]1[C@H]([C@H](OC(=O)NCCCCCCNC(=O)NCCCCCCNC(=O)OC(C)(C)C)[C@H](O)CO)OC(C(=O)O)=C[C@@H]1N [compound 20, 5-acetamido-4-amino-7-[6′-(6″-tert-butoxycarbonyl-aminohexylureido) -hexyl]-carbamoyloxy-2,3,4,5-tetradeoxy-D-glycero-D-galacto-non-2-enopyanosonic acid]	1e-05 M	–	–
CC(=O)N[C@H]1[C@H]([C@H](OC(=O)NCCCCCCNC(=O)OC(C)(C)C)[C@H](O)CO)OC(C(=O)O)=C[C@@H]1NC(=N)N [compound 13, 5-acetamido-7-(6′-tert-butoxycarbonylaminohexyl)-carbamoyloxy-4-guanidino-2,3,4,5-tetradeoxy-D-glycero-D-galacto-non-2-enopyranosonic acid]	2e-08 M	–	–
